Test results taken from PubChem BioAssay AID540276 (National Center for Advancing Translational Sciences (NCATS), 2011).
Most of the hits are listed elsewhere, so they are rarer here than in the full data. Inconclusive results are not listed. Active and inactive are the calls of the source. The call rests on the fitted dose curve; tested in HEK293 cells.

Test: qHTS for inhibitors of binding or entry into cells for Marburg Virus
Conditions: Marburg virus pseudotyped entry inhibition, cell reporter; at 37.8 µM (top of the series)
On the % scale 0 is the no-effect control and ±100 the full control effect.

Structure (SMILES) | activity change, negative = inhibition
Clc1ccc(N2CCN(Cc3c[nH]c4ncccc34)CC2)cc1 | inactive: -24.9%
